{
  "source": "paper doi:10.1101/2025.04.08.647683",
  "biological_target": "T1, QuiR (UniProt Q8Y9N7)",
  "T1 sequence (looked up, limits assumed)": "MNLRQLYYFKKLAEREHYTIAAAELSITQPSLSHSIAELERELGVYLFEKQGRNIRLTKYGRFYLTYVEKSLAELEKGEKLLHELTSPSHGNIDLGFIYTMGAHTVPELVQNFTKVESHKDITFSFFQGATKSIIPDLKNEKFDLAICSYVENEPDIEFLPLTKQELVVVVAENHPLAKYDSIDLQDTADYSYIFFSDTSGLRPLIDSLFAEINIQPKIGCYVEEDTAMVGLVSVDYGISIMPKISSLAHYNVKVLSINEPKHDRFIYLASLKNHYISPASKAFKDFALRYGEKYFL",
  "assay": "EMSA",
  "conditions": "QuiR alone, no effector; probe letters rebuilt from the primers and the genome",
  "note": "For at least one entry, the source does not settle the construct or the ends of the probe. At least one verdict was read from the data and is not stated in words by the source. Protein sequences can lack the tags named with them.",
  "data": [
    {"sequence": "CGCAAGTTCATCGGTTAACCTCCTCGGAATGCCTTGATAACTCTATTGTAAGCGATTGTATAGAAAAAATCTATGGATAAATCGAAAAATATACATTAGATTAATAATTATTCCTGACTTATAATGAAAGAGAAATAAGATTGTGCATTATTGAACGTGAATAATGTAACAAATCATTTGCTGAGATTATAGTCGCAGGAGGCTTATTATGACAGATTATCCGAG (double strand) [qui1 intergenic region probe (225 nt)]", "values": [
      {"measurement": "binding result", "result": "binds"}
    ]}
  ]
}
